Experimental data as given in publication PMC5599060.
The exact form of at least one protein or probe is not confirmed. At least one verdict rests on a figure or table, not on a statement of the authors. For part of these data: Where a protein sequence is shown, tags need not be part of it.

Assays:
[1] = biological target: mLANA DBD (mLANA124-314) (Murine gammaherpesvirus 68 (MHV68)) (UniProt O41974); experiment: EMSA; details: 1 uM DNA; IVT EMSA: 20 mM Tris pH 7.5, 10% glycerol, 50 mM KCl, 0.1 mM DTT, 10 mM MgCl2, 1 mM EDTA, 20 ug/ml poly(dI-dC), 30 min on ice; recombinant protein; label: 5' fluorescein on strand 1
[2] = biological target: T1, kLANA DBD (kLANA1008-1150) (Kaposi's sarcoma-associated herpesvirus (KSHV)) (UniProt Q9QR71); experiment: EMSA; details: 1 uM DNA; IVT EMSA: 20 mM Tris pH 7.5, 10% glycerol, 50 mM KCl, 0.1 mM DTT, 10 mM MgCl2, 1 mM EDTA, 20 ug/ml poly(dI-dC), 30 min on ice; recombinant protein; label: 5' fluorescein on strand 1
T1 sequence (looked up, limits assumed): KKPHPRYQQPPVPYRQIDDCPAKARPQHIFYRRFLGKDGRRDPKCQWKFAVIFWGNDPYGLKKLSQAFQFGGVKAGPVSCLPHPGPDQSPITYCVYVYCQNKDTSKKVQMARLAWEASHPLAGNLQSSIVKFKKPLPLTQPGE

Sequence | binding result [1] | binding result [2]
TTTCCCGCGCCTGGGGCGCCACGCGGCGCGCCCTGGAGACCCGGG / CCCGGGTCTCCAGGGCGCGCCGCGTGGCGCCCCAGGCGCGGG [Flc-mLBS1-2] | binds | –
TTTGACGCCGCCGGGGCCTGCGGCGCCTCCCGCCCGGGCATGGGGCCGC / GCGGCCCCATGCCCGGGCGGGAGGCGCCGCAGGCCCCGGCGGCGTC [Flc-kLBS1-2] | binds | binds
